Data from US11052151B2, “Diagnosis and treatment of autism spectrum disorder” (California Institute of Technology, priority 2012, dated 2021).
Structures can show the parent of a compound that is named as a salt. Residues, ends and D or L forms follow the SMILES beside them.

Experiment: Metabolomics screening (GC/LC-MS) of sera after B. fragilis treatment of MIA offspring
Type: in vivo, mice
Settings: poly(I:C)+B. fragilis offspring relative to saline controls, p<0.05

Compound	I:C-Bfrag / CON (fold change of serum metabolite)
1-palmitoylplasmenylethanolamine	0.72
13-HODE+9-HODE	0.50
CC(O)CO (centres unmarked) [1,2-propanediol]	0.83
CCCCC/C=C\C/C=C\C/C=C\C/C=C\CCCC(=O)OC[C@@H](O)COP(=O)(O)OCCN [1-arachidonoylglycerophosphoethanolamine]	0.76
CCCCC/C=C\C/C=C\C/C=C\C/C=C\CCCC(=O)OC[C@@H](O)COP(=O)(O)OC1[C@H](O)[C@H](O)C(O)[C@H](O)[C@H]1O (some centres unmarked) [1-arachidonoylglycerophosphoinositol]	0.61
CCCCC/C=C\C/C=C\CCCCCCCC(=O)OCC(O)COP(=O)(O)OCCN (centres unmarked) [1-linoleoylglycerophosphoethanolamine]	0.71
CCCCC/C=C\C/C=C\CCCCCCCC(=O)OCC(O)COP(=O)(O)OC1C(O)C(O)C(O)C(O)C1O (centres unmarked) [1-linoleoylglycerophosphoinositol]	0.59
CCCCCCCCCCCCCCCCCC(=O)OC[C@@H](O)COP(=O)(O)OC1[C@H](O)[C@H](O)C(O)[C@H](O)[C@H]1O (some centres unmarked) [1-stearoylglycerophosphoinositol]	0.66
CCC(N)C(=O)O (centres unmarked) [2-aminobutyrate]	0.76
CCCCC/C=C\C/C=C\C/C=C\C/C=C\CCCC(=O)O[C@H](CO)COP(=O)(O)OCCN [2-arachidonoylglycerophosphoethanolamine]	0.78
CCC(O)C(=O)O (centres unmarked) [2-hydroxybutyrate (AHB)]	0.64
O=C(O)CCC(O)C(=O)O (centres unmarked) [2-hydroxyglutarate]	0.83
CCC(C)C(=O)OC(CC(=O)[O-])C[N+](C)(C)C (centres unmarked) [2-methylbutyroylcarnitine]	0.66
Nc1ccn([C@H]2C[C@H](O)[C@@H](CO)O2)c(=O)n1 [2′-deoxycytidine]	1.32
O=C(O)C(O)Cc1ccc(O)cc1 (centres unmarked) [3-(4-hydroxyphenyl)lactate]	0.81
C[N+](C)(C)CC(=O)CC(=O)[O-] [3-dehydrocarnitine]	0.71
CC(O)CC(=O)O (centres unmarked) [3-hydroxybutyrate (BHBA)]	0.66
CCCCCCCC(O)CC(=O)O (centres unmarked) [3-hydroxydecanoate]	0.51
CC(C)C(=O)C(=O)O [3-methyl-2-oxobutyrate]	0.68
CCC(C)C(=O)C(=O)O (centres unmarked) [3-methyl-2-oxovalerate]	0.67
NC(=O)NCCC(=O)O [3-ureidopropionate]	0.64

Compound	I:C-Bfrag / CON (fold change of serum metabolite)
N=C(N)NCCCC(=O)O [4-guanidinobutanoate]	0.65
CC(C)CC(=O)C(=O)O [4-methyl-2-oxopentaoate, 4-methyl-2-oxopentanoate]	0.63
O=C1CC[C@@H](C(=O)O)N1 [5-oxoproline]	0.80
CCCCC/C=C\CC(O)C(O)CCCCCCCC(=O)O (centres unmarked) [9,10-hydroxyoctadec-12(Z)-enoic acid]	0.48
CCCCC[C@H](O)[C@@H](O)C/C=C\CCCCCCCC(=O)O [12,13-hydroxyoctadec-9(Z)-enoate]	0.54
CCCCC/C=C\C[C@H](O)/C=C/C=C\C/C=C\CCCC(=O)O [12-HETE]	0.57
Nc1ncnc2c1ncn2C1OC(COP(=O)(O)O)C(O)C1O (centres unmarked) [adenosine 5′-monophosphate (AMP)]	20.92
Nc1ncnc2c1ncn2[C@@H]1O[C@H](CO)[C@@H](O)[C@H]1O [adenosine]	5.63
O=C(O)CCCCC(=O)O [adipate]	0.62
CCCCC/C=C\C/C=C\C/C=C\C/C=C\CCCCCC(=O)O [adrenate]	0.75
O=S(=O)(O)Oc1ccccc1O [catechol sulfate]	0.77
OC1C(O)C(O)C(O)C(O)C1O (centres unmarked) [chiro-inositol]	0.66
O=C(O)CC(O)(CC(=O)O)C(=O)O [citrate]	0.80
CCCCC/C=C\C/C=C\CCCCCCCCCC(=O)O [dihomo-linoleate (20:2n6)]	0.63
CC/C=C\C/C=C\C/C=C\C/C=C\C/C=C\C/C=C\CCC(=O)O [docosahexaenoate (DHA; 22:6n3)]	0.77
CC/C=C\C/C=C\C/C=C\C/C=C\C/C=C\CCCCCC(=O)O [docosapentaenoate (n3 DPA; 22:5n3)]	0.72
CCCCC/C=C\C/C=C\C/C=C\C/C=C\C/C=C\CCC(=O)O [docosapentaenoate (n6 DPA; 22:5n6)]	0.70
O=C(O)CCCCCCCCCCC(=O)O [dodecanedioate]	0.65
OC[C@@H](O)[C@@H](O)CO [erythritol]	0.79
O=C(O)/C=C/C(=O)O [fumarate]	0.64
N[C@@H](CCC(=O)N[C@@H](Cc1c[nH]c2ccccc12)C(=O)O)C(=O)O [gamma-glutamyltryptophan]	0.77

Compound	I:C-Bfrag / CON (fold change of serum metabolite)
CC(C)[C@H](NC(=O)CN)C(=O)O [glycylvaline] (H-Gly-Val-OH)	0.22
Nc1nc2c(ncn2[C@@H]2O[C@H](COP(=O)(O)O)[C@@H](O)[C@H]2O)c(=O)[nH]1 [guanosine 5′-monophosphate (5′-GMP)]	5.74
CCCCCCC(=O)O [heptanoate (7:0)]	0.81
O=C(O)CCCCCCCCCCCCCCC(=O)O [hexadecanedioate]	0.54
CCCCCC(=O)OC(CC(=O)O)C[N+](C)(C)C.[Cl-] (centres unmarked) [hexanoylcarnitine]	0.58
O=c1[nH]cnc2nc[nH]c12 [hypoxanthine]	8.55
OC[C@H]1O[C@@H](n2cnc3c(O)ncnc32)[C@H](O)[C@@H]1O [inosine]	8.36
CC(C)C(=O)O[C@H](CC(=O)[O-])C[N+](C)(C)C [isobutyrylcarnitine]	0.68
CC(C)CC(=O)O[C@H](CC(=O)[O-])C[N+](C)(C)C [isovalerylcarnitine]	0.76
CCCCCCCCCCCC(=O)O [laurate (12:0)]	0.85
CCCCC/C=C\C/C=C\CCCCCCCC(=O)O [linoleate (18:2n6)]	0.64
O=C(O)CC(O)C(=O)O (centres unmarked) [malate]	0.69
CCCCCCCCCCCCCCCCC(=O)O [margarate (17:0)]	0.60
CCCCCCCC/C=C\C/C=C\C/C=C\CCCC(=O)O [mead acid (20:3n9)]	0.74
CCCCCCCCCCCCCC(=O)O [myristate (14:0)]	0.70
NC(=O)c1cccnc1 [nicotinamide]	0.79
O=C(O)CCCCCCCCCCCCCCCCC(=O)O [octadecanedioate]	0.53
CCCCCCCC(=O)O[C@H](CC(=O)O)C[N+](C)(C)C [octanoylcarnitine]	0.69
CCCCCCCC/C=C\CCCCCCCC(=O)O [oleate (18:1n9)]	0.56
CCCCCCCCCCCCCCCC(=O)O [palmitate (16:0)]	0.72
CCCCCC/C=C\CCCCCCCC(=O)O [palmitoleate (16:1n7)]	0.70

Compound	I:C-Bfrag / CON (fold change of serum metabolite)
CCCCCCCCC(=O)O [pelargonate (9:0)]	0.81
CO[C@H]1[C@H](O)[C@@H](O)[C@@H](O)[C@H](O)[C@@H]1O [pinitol]	0.61
O=c1[nH]cc([C@@H]2O[C@H](CO)[C@@H](O)[C@H]2O)c(=O)[nH]1 [pseudouridine]	0.89
OC[C@@H](O)[C@@H](O)[C@@H](O)CO [ribitol]	0.74
O=C[C@H](O)[C@H](O)[C@H](O)CO [ribose]	1.97
O=C(CO)[C@H](O)[C@H](O)CO [ribulose]	0.68
OC[C@@H](O)[C@@H](O)[C@H](O)[C@@H](O)CO [sorbitol]	0.63
CC/C=C\C/C=C\C/C=C\C/C=C\CCCCC(=O)O [stearidonate (18:4n3)]	0.66
O=C(O)CCCCCCCCCCCCC(=O)O [tetradecanedioate]	0.57
N[C@@H](Cc1ccc(O)cc1)C(=O)O [tyrosine]	0.85
O=C(O)CCCCCCCCCC(=O)O [undecanedioate]	0.66
O=c1cc[nH]c(=O)[nH]1 [uracil]	0.64
Oc1nc(O)c2nc(O)[nH]c2n1 [urate]	0.84
CCCCC(=O)O[C@H](CC(=O)[O-])C[N+](C)(C)C [valerylcarnitine]	0.56
OC[C@@H](O)[C@H](O)[C@@H](O)CO [xylitol]	1.62
TDTEDKGEFLSEGGGV [Fibrinogen cleavage peptide detected in serum]	1.43
TDTEDKGEFLSEGGGVR (ASD-related metabolite)	3.46
dihomo-linolenate (20:3n3 or n6)	0.69
eicosenoate	0.59
equol sulfate	0.70
